One experiment deals with TMPRSS2 (Homo sapiens, UniProt O15393). The settings on record: for TMPRSS2 activity, Mean (Fig. 2a): normalized, 0 nM = 100; for Ki: read-out: Ki TMPRSS2, 30 min preincubation, substrate Boc-Gln-Ala-Arg-AMC, Ki from IC50 by Cheng–Prusoff.
Experiment [1] has as its system SARS-CoV-2 Wuhan-Hu-1, Caco-2 cells. Nature of the experiment: SARS-CoV-2 inhibition assay, Wuhan-Hu-1 (in-cell ELISA). The settings on record: for SARS-CoV-2 infection, Mean (0 nM = 100): Fig. 6a, Wuhan-Hu-1; for IC50: read-out: IC50 SARS-CoV-2 Wuhan-Hu-1, Caco-2 cells, in-cell ELISA 2 days post infection. On the technique in general: An ELISA detects its analyte on a solid surface through an enzyme-linked reagent.

Chains of the proteins cited; added tags and fusions are not shown. Residues count along the entry.
UniProt O15393, whole entry: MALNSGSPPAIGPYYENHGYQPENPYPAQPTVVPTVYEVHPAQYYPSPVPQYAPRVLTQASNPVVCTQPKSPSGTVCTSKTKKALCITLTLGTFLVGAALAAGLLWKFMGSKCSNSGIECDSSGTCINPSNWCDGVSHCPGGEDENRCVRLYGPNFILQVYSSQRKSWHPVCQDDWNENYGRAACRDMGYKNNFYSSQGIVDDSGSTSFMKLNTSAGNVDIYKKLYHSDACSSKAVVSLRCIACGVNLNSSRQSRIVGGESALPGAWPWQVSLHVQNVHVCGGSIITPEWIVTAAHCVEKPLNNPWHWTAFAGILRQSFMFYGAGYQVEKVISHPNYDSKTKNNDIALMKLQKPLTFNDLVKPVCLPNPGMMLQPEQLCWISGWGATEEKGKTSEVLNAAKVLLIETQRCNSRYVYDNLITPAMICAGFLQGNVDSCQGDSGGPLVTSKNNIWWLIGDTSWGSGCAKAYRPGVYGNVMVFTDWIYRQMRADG
UniProt Q9Y5Y6, whole entry: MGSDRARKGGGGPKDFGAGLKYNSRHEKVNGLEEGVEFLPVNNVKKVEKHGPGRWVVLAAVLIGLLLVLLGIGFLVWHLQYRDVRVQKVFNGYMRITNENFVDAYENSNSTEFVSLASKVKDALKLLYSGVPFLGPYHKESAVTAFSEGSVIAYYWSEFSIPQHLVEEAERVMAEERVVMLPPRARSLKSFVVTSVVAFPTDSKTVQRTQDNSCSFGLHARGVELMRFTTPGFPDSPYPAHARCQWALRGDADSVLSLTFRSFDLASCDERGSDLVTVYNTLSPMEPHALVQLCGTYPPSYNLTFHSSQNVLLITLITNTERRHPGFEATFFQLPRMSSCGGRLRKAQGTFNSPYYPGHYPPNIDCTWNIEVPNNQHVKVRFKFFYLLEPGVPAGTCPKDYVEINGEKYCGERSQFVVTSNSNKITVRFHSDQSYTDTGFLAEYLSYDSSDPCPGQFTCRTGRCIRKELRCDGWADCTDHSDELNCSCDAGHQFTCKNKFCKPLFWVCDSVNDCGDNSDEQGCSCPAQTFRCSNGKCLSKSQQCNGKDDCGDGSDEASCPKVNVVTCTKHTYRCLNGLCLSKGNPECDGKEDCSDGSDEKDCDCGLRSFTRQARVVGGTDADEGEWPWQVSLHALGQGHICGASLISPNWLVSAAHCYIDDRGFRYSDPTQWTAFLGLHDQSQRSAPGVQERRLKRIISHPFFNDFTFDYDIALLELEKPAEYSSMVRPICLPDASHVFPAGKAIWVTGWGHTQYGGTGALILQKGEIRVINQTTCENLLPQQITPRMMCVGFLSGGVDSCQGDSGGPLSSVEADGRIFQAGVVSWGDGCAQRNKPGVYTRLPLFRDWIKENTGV
UniProt P00742, 235-488 limits assumed: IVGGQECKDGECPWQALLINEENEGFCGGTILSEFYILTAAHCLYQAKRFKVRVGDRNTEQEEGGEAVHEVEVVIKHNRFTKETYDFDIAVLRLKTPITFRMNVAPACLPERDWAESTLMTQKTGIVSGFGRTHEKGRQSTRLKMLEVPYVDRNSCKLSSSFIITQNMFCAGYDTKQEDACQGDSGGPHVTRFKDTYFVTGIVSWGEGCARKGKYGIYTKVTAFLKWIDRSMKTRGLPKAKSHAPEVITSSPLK
UniProt P00742, 41-179 partner limits assumed: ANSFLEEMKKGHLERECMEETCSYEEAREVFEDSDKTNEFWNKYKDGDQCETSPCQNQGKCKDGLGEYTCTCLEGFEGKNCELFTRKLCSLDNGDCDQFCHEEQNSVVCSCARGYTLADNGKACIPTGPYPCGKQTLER

The subject of experiment [2] is lentiviral pseudoparticles carrying SARS-CoV-2 Wuhan-Hu-1 spike, Caco-2 cells. The experiment is described as follows: Pseudovirus inhibition assay, wild-type (Wuhan-Hu-1) spike. The settings on record: for SARS-CoV-2 spike driven entry, Mean (0 nM = 100): Fig. 5a, Wuhan-Hu-1 spike pseudoparticles; for IC50: read-out: IC50 pseudotyped lentivirus Wuhan-Hu-1, Caco-2 cells, luciferase 2 days post transduction.

Experiment [3] deals with recombinant human matriptase (Homo sapiens, UniProt Q9Y5Y6). Nature of the experiment: Enzyme inhibition assay with purified matriptase (Ki, dose-response). In kind it is biochemical. The settings on record: for Selectivity index Matriptase: quotient Ki matriptase / Ki TMPRSS2; for Ki: read-out: Ki Matriptase, 30 min preincubation, substrate Boc-Gln-Ala-Arg-AMC.
Another experiment addresses factor Xa (Homo sapiens, UniProt P00742). The experiment is described as follows: Enzyme inhibition assay with purified factor Xa (Ki, dose-response). It is filed as biochemical. The note with it: for factor Xa activity, Mean (Fig. 2d): normalized, 0 nM = 100; for Selectivity index Factor Xa: quotient Ki factor Xa / Ki TMPRSS2; for Ki: read-out: Ki Factor Xa, 30 min preincubation, substrate Bz-Ile-Glu-Gly-Arg-pNA.

Experiment [4] has as its target recombinant human thrombin (Homo sapiens, UniProt P00734). Nature of the experiment: Enzyme inhibition assay with purified thrombin (Ki, dose-response). It is filed as biochemical. The settings on record: for Selectivity index Thrombin: quotient Ki thrombin / Ki TMPRSS2; for Ki: read-out: Ki Thrombin, 30 min preincubation, substrate D-Phe-Homopro-Arg-pNA.

The structures appear in SMILES notation. Like-named read-outs stand apart in the source and are kept apart here.

As to `CC(=O)N[C@H](CCCNC(=N)N)C(=O)N1CCC[C@H]1C(=O)NC(CCCNC(=N)N)C(=O)c1nc2ccccc2s1` (stereo partly drawn), the “TMPRSS2 activity, Mean (Fig. 2a)” value on TMPRSS2 (0.05 nM) is reported as 103.987; on TMPRSS2 (0.5 nM) it was 106.22; at TMPRSS2 (5 nM) it was 106.858; on TMPRSS2 (50 nM), 82.6156; at TMPRSS2 (500 nM), 26.3158; on TMPRSS2 (5000 nM), 3.509. Further, the “TMPRSS2 activity, Mean (Fig. 2a)” value at TMPRSS2 (50000 nM) and at TMPRSS2 (500000 nM) was 0.1595 throughout. Besides, the Ki (in general, a measure of affinity in units of concentration, obtained from inhibition or displacement) at TMPRSS2 stood at 86.7 nM; in experiment [3], 1.7 nM; on factor Xa, 4.1 nM; in experiment [4], 2080 nM. Moreover, the “SARS-CoV-2 infection, Mean (0 nM = 100)” value in experiment [1] (compound 32 nM) is 97.3498; in experiment [1] (compound 160 nM) it was 98.8884; in experiment [1] (compound 800 nM) it was 101.772; in experiment [1] (compound 4000 nM), 107.393; in experiment [1] (compound 20000 nM), 38.1857. In addition, the concentration for half-maximal inhibition (IC50) (commonly the concentration needed to halve the response being measured) in experiment [1] was 18900 nM; in experiment [2] it was 1200 nM. Besides, the “SARS-CoV-2 spike driven entry, Mean (0 nM = 100)” value (“SARS-CoV-2 spike driven entry” below) in experiment [2] (compound 32 nM) was determined as 78.723; in experiment [2] (compound 160 nM) it was 80.304; in experiment [2] (compound 800 nM), 56.218; in experiment [2] (compound 4000 nM), 38.324; in experiment [2] (compound 20000 nM) it was 7.149. Besides, the “selectivity for matriptase (over TMPRSS2)” value in experiment [3] was ~ 51 fold. The Selectivity index Matriptase in experiment [3] came out at 0.02. In addition, the “factor Xa activity, Mean (Fig. 2d)” value at factor Xa (0.02 nM) was 114.307; on factor Xa (0.04 nM), 111.644; on factor Xa (0.2 nM), 99.8476; on factor Xa (2 nM), 73.2113; at factor Xa (20 nM), 29.8323; at factor Xa (200 nM), 14.9163. Besides, the figures for the “factor Xa activity, Mean (Fig. 2d)” value on factor Xa (10000 nM) and at factor Xa (100000 nM) were 11.1111 and 5.175, respectively. The same compound showed a Selectivity index Factor Xa at factor Xa of 0.05. The Selectivity index Thrombin in experiment [4] came to 24.

As to `CC(=O)N[C@H](CCCNC(=N)N)C(=O)N[C@H](C(=O)NC(CCCNC(=N)N)C(=O)c1nc2ccccc2s1)[C@@H](C)O` (stereo partly drawn), the “TMPRSS2 activity, Mean (Fig. 2a)” value at TMPRSS2 (0.05 nM) amounted to 98.7678; on TMPRSS2 (0.5 nM) it was 95.9242; on TMPRSS2 (5 nM) it was 93.9336; at TMPRSS2 (50 nM), 87.3934; at TMPRSS2 (500 nM) it was 52.3223; at TMPRSS2 (5000 nM) it was 9.668. Also, the entries for the “TMPRSS2 activity, Mean (Fig. 2a)” value on TMPRSS2 (50000 nM) and on TMPRSS2 (500000 nM) were 0.5687 and -1.896e-7, respectively. Besides, the inhibitory constant (Ki) on TMPRSS2 is 216 nM; in experiment [3], 160 nM; on factor Xa, 966 nM; in experiment [4], above 50000 nM. Besides, the “SARS-CoV-2 infection, Mean (0 nM = 100)” value in experiment [1] (compound 32 nM) is listed as 95.2974; in experiment [1] (compound 160 nM), 99.2923; in experiment [1] (compound 800 nM) it was 101.216; in experiment [1] (compound 4000 nM), 99.5295; in experiment [1] (compound 20000 nM), 64.5689. Moreover, the concentration for half-maximal inhibition (IC50) in experiment [1] amounted to 24500 nM; in experiment [2], 5600 nM. Moreover, the “SARS-CoV-2 spike driven entry” value in experiment [2] (compound 32 nM) turned out to be 87.6125; in experiment [2] (compound 160 nM), 81.262; in experiment [2] (compound 800 nM), 81.4485; in experiment [2] (compound 4000 nM) it was 62.251; in experiment [2] (compound 20000 nM) it was 24.318. Further, the Selectivity index Matriptase in experiment [3] was determined as 0.7. In addition, the “factor Xa activity, Mean (Fig. 2d)” value at factor Xa (0.02 nM) came out at 106.859; at factor Xa (0.04 nM) it was 109.206; at factor Xa (0.2 nM), 106.498; at factor Xa (2 nM), 117.148; at factor Xa (20 nM), 107.582; at factor Xa (200 nM), 91.154. Besides, the “factor Xa activity, Mean (Fig. 2d)” value amounted to 13.7184 at factor Xa (10000 nM) and 8.123 at factor Xa (100000 nM). This compound had a Selectivity index Factor Xa at factor Xa of 4.5.

Turning to `CC(=O)N[C@H](CCCNC(=N)N)C(=O)N1CCCC[C@H]1C(=O)NC(CCCNC(=N)N)C(=O)c1nc2ccccc2s1` (stereo partly drawn), the “TMPRSS2 activity, Mean (Fig. 2a)” value at TMPRSS2 (0.05 nM) is 96.4874; at TMPRSS2 (0.5 nM) it was 92.0966; at TMPRSS2 (5 nM) it was 92.5357; at TMPRSS2 (50 nM) it was 77.2777; on TMPRSS2 (500 nM) it was 26.4544; at TMPRSS2 (5000 nM) it was 2.634. Besides, the “TMPRSS2 activity, Mean (Fig. 2a)” value at TMPRSS2 (50000 nM) was 0.3293; on TMPRSS2 (500000 nM), -0.8782. For the same compound, the inhibitory constant (Ki) on TMPRSS2 is 71.5 nM; in experiment [3], 75.6 nM; on factor Xa, 472 nM; in experiment [4], above 50000 nM. The “SARS-CoV-2 infection, Mean (0 nM = 100)” value in experiment [1] (compound 32 nM) came out at 92.1368; in experiment [1] (compound 160 nM), 91.3329; in experiment [1] (compound 800 nM) it was 91.1132; in experiment [1] (compound 4000 nM), 95.0286; in experiment [1] (compound 20000 nM), 71.5878. In addition, the IC50 in experiment [1] was above 100000 nM. The “SARS-CoV-2 spike driven entry” value in experiment [2] (compound 32 nM) turned out to be 83.6765; in experiment [2] (compound 160 nM) it was 86.282; in experiment [2] (compound 800 nM) it was 83.5365; in experiment [2] (compound 4000 nM), 76.3675; in experiment [2] (compound 20000 nM) it was 35.339. Moreover, the Selectivity index Matriptase in experiment [3] came out at 1.1. Further, the “factor Xa activity, Mean (Fig. 2d)” value stood at 103.976 on factor Xa (0.04 nM); 102.585 on factor Xa (0.2 nM); 94.8313 at factor Xa (2 nM); 97.0174 at factor Xa (20 nM); 61.6292 on factor Xa (200 nM); 26.2426 at factor Xa (10000 nM). In addition, at factor Xa, the Selectivity index Factor Xa amounted to 6.6. The Selectivity index Thrombin in experiment [4] was above 699.

In the case of `CC(=O)N[C@H](Cc1c[nH]cn1)C(=O)N1CCC[C@H]1C(=O)NC(CCCNC(=N)N)C(=O)c1nc2ccccc2s1` (stereo partly drawn), the “TMPRSS2 activity, Mean (Fig. 2a)” value at TMPRSS2 (0.05 nM) is reported as 92.713; at TMPRSS2 (0.5 nM) it was 90.8072; on TMPRSS2 (5 nM), 77.0179; on TMPRSS2 (50 nM), 35.2018; at TMPRSS2 (500 nM), 5.269; at TMPRSS2 (5000 nM), -0.1121. For the same compound, the “TMPRSS2 activity, Mean (Fig. 2a)” value is 4.484e-8 at TMPRSS2 (50000 nM) and -2.018 at TMPRSS2 (500000 nM). Moreover, the Ki worked out at 9.1 nM on TMPRSS2, 14 nM in experiment [3], 271 nM on factor Xa and 4090 nM in experiment [4]. Besides, the “SARS-CoV-2 infection, Mean (0 nM = 100)” value was 103.059 in experiment [1] (compound 32 nM); 104.757 in experiment [1] (compound 160 nM); 105.293 in experiment [1] (compound 800 nM); 90.3664 in experiment [1] (compound 4000 nM); 28.2625 in experiment [1] (compound 20000 nM); -0.3568 in experiment [1] (compound 100000 nM). For the same compound, the concentration for half-maximal inhibition (IC50) amounted to 12600 nM in experiment [1] and 3240 nM in experiment [2]. The “SARS-CoV-2 spike driven entry” value turned out to be 105.501 in experiment [2] (compound 32 nM); 95.759 in experiment [2] (compound 160 nM); 83.4395 in experiment [2] (compound 800 nM); 44.4825 in experiment [2] (compound 4000 nM); 9.5185 in experiment [2] (compound 20000 nM); 2.14 in experiment [2] (compound 100000 nM). Besides, the Selectivity index Matriptase in experiment [3] amounted to 1.5. For the same compound, the “factor Xa activity, Mean (Fig. 2d)” value on factor Xa (0.02 nM) is 104.019; at factor Xa (0.04 nM), 92.1132; on factor Xa (0.2 nM) it was 96.2801; on factor Xa (2 nM), 100.447; at factor Xa (20 nM) it was 98.8093; on factor Xa (200 nM) it was 77.3813. In addition, the “factor Xa activity, Mean (Fig. 2d)” value at factor Xa (10000 nM) amounted to 11.3095; on factor Xa (100000 nM) it was 11.0119. In addition, the Selectivity index Factor Xa on factor Xa is 29.8. In experiment [4], the Selectivity index Thrombin is 449.

Take `CC(=O)N[C@@H](CCCNC(=N)N)C(=O)N1CCC[C@H]1C(=O)N[C@@H](CCCNC(=N)N)C(=O)c1nc2ccccc2s1`: in experiment [3], the Ki was 6.2 nM.

Regarding `CC(=O)N[C@@H](CCCNC(=N)N)C(=O)N1CCC[C@H]1C(=O)N[C@H](CCCNC(=N)N)C(=O)c1nc2ccccc2s1`, the Ki in experiment [3] stood at 0.9 nM.

For the origin of these results see PMC9270327 (Communications Biology, 2022).
